## PSTVd stem 3 mutant pool in Nicotiana benthamiana

The measurements come from Wu et al. 2024 (doi:10.1371/journal.ppat.1012142).

The pool varies stem 3 of the PSTVd intermediate strain in the pattern GUGGUUCCGNANNCNN; wild type is GUGGUUCCGGAACCGC (upper and lower strand joined, each 5' to 3', the first 8 letters being the upper strand).

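A pool of all variants was put on leaves of three Nicotiana benthamiana plants. Samples came from the inoculated region at 5 days, the leaf margin at 10 and upper systemic leaves at 12.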

Numbers give reads per thousand; 0 = not seen among the reads, higher = more abundant. Each value is the mean of three plants. "Pool" is the share in the plasmid pool used as inoculum, on the same scale. The inoculated region was read from the minus strand, the other sites from the plus strand. IR is the inoculated region, LM the leaf margin, Sys the systemic leaves. The authors trace changes outside the varied positions to PCR and sequencing errors or to mutation in the plant; presence does not show that a variant is infectious alone.

{"sequence": "GUGGUUCCGAAGCCUA", "pool": "0.739", "IR": 0.693, "LM": 0.261, "Sys": 0}
{"sequence": "GUGGUUCCGGACGCUC", "pool": "1.49", "IR": 0.797, "LM": 0, "Sys": 0.00621}
{"sequence": "GUGGUUCCGCAAUCGC", "pool": "0.877", "IR": 0.403, "LM": 0.0106, "Sys": 0}
{"sequence": "GUGGUUCCGUAUACCC", "pool": "1.02", "IR": 0.403, "LM": 0, "Sys": 0.0435}
{"sequence": "GUGGUUCCGACAACAC", "pool": "0.0154", "IR": 0.450, "LM": 0.231, "Sys": 0}
{"sequence": "GUAGUUCCGGAGACUC", "pool": "0.0154", "IR": 0, "LM": 0, "Sys": 0}
{"sequence": "GUGGUUCCGAACCCCG", "pool": "0.985", "IR": 0.314, "LM": 0.0215, "Sys": 0}
{"sequence": "GUGGUUCCGUAAUCAG", "pool": "0.769", "IR": 0.711, "LM": 0.106, "Sys": 0}
{"sequence": "GUGGUUCCGGAGUCAA", "pool": "0.646", "IR": 0.729, "LM": 0.380, "Sys": 0}
{"sequence": "GUGGUUCCGUAACCUG", "pool": "0.939", "IR": 0.368, "LM": 0, "Sys": 0}
{"sequence": "GUGGUUCCGGAAACAG", "pool": "0.862", "IR": 0.387, "LM": 0, "Sys": 0}
{"sequence": "GUGGUUCAGGCACCGC", "pool": "0.0154", "IR": 0, "LM": 0, "Sys": 0}
{"sequence": "GUGGUUCCGCACGCAG", "pool": "0.708", "IR": 0.297, "LM": 0, "Sys": 0}
{"sequence": "GUGGUUCCGCACGCGU", "pool": "0.785", "IR": 0.335, "LM": 0.0321, "Sys": 0}
{"sequence": "GUUGUUCCGAAAUCCA", "pool": "0.0154", "IR": 0, "LM": 0, "Sys": 0}
{"sequence": "GUGGUUCCGAAGGCUA", "pool": "1.00", "IR": 0.648, "LM": 0.448, "Sys": 0}
{"sequence": "GUGGUUCCGAACACAC", "pool": "0.693", "IR": 0.860, "LM": 0.156, "Sys": 0}
{"sequence": "GUGGUUCCUGUACCUC", "pool": "0.0154", "IR": 0, "LM": 0, "Sys": 0}
{"sequence": "GUGGUUCCGUAAUCGA", "pool": "1.45", "IR": 0.876, "LM": 0.0215, "Sys": 0.0434}
{"sequence": "GUGGUUCCGAAGUCAC", "pool": "0.831", "IR": 0.848, "LM": 1.15, "Sys": 1.19}
{"sequence": "GUGGUUCCGCAUGCAG", "pool": "1.02", "IR": 0.260, "LM": 0.0200, "Sys": 0}
{"sequence": "GUGGUUCCGGAGCCUA", "pool": "0.877", "IR": 0.283, "LM": 0.0120, "Sys": 0}
{"sequence": "GUGGUUCCGUAAGCCC", "pool": "1.00", "IR": 0.351, "LM": 0.178, "Sys": 0}
{"sequence": "GUGGGUCCGGACCCCG", "pool": "0.0154", "IR": 0, "LM": 0, "Sys": 0}
{"sequence": "GUGGUUCCGCACUCUU", "pool": "0.631", "IR": 0.672, "LM": 0.120, "Sys": 0}

Extract of 2 entries:

sequence,pool,IR,LM,Sys
GUUGUUCCGAAAUCCA,0.0154,0,0,0
GUGGUUCCGCACUCUU,0.631,0.672,0.120,0

For reference, wild type rose from 17.3 per thousand in the pool to 330, 345, 235 (inoculated region), 794, 766, 816 (leaf margin) and 830, 792, 869 (systemic leaves). With 27,691-54,225 reads a sample, very low values are single reads.